Results on 4 molecules are retold here after patent publication US20140323691A1 (UAB RESEARCH FOUNDATION, published 2014).

Substitutions are numbered along the chain they refer to.

The chains are these.
T1: BxpB (exosporium basal layer protein) (Bacillus anthracis)
T1 chain: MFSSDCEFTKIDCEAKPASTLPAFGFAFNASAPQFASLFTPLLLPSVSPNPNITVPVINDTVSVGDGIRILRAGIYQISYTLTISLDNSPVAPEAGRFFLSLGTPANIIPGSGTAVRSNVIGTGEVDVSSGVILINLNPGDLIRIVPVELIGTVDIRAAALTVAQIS

T2: BxpB mutant 13M (all 13 acidic residues changed to alanines) (Bacillus anthracis)
T2 chain: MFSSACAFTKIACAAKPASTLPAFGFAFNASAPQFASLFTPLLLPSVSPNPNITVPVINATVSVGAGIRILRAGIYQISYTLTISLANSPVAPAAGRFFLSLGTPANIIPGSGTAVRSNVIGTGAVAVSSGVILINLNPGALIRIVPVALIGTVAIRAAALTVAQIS

T3: BxpB mutant 10M (all acidic residues except D5, D12 and E14 changed to alanines) (Bacillus anthracis)
T3 chain: T2 chain with A5D, A12D, A14E

T4: BxpB mutant 10M+D127 (Bacillus anthracis)
T4 chain: T2 chain with A5D, A12D, A14E, A127D

T5: BxpB mutant 10M+E125 (Bacillus anthracis)
T5 chain: T2 chain with A5D, A12D, A14E, A125E

T6: CotE (Bacillus anthracis)
T6 chain: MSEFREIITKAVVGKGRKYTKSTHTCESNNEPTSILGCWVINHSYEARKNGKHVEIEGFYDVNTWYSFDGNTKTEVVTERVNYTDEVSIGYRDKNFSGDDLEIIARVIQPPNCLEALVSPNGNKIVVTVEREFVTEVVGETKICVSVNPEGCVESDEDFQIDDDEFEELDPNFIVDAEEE

B1: CotY (other)
chain: SCNCNEDHHHHDCDFNCVSNVVRFIHELQECATTTCGSGCEVPFLGAHNSASVANTRPFILYTKAGAPFEAFAPSANLTSCRSPIFRVESIDDDDCAVLRVLSVVLGDTSPVPPTDDPICTFLAVPNARLISTNTCLTVDLSCFCAIQCLRDVTI
B2: ExsB (other)
chain: EDFLHQDPSTFDCDDDCTTKIECSDDCNCPRTRCTRVKHCTFVTKCTHVKKWTFVTKCTRVRVQKWTFVTKVTRRKECVLVTKRTRRKHCTFVTKCVRFEKKFYWTKRCYCKKCEFFPHGHGGSCDDSCDHGKDCHDDGHKWNDCKGGHKFPSCKNKKFDHFWYKKRNC
B3: BclA (collagen-like glycoprotein of the Bacillus anthracis exosporium nap) (other)
chain: AFDPNLVGPTLPPIPPFTLPTGPTGPTGPTGPTGPTGPTGPTGPTGPTGPTGPTGPTGPTGDTGTTGPTGPTGPTGPTGPTGDTGTTGPTGPTGPTGPTGPTGPTGPTGPTGPTGPTGDTGTTGPTGPTGPTGPTGPTGDTGTTGPTGPTGPTGPTGPTGPTGPTGPTGPTGPTGPTGPTGPTGDTGTTGPTGPTGPTGPTGPTGDTGTTGPTGPTGPTGPTGPTGPTGPTGATGLTGPTGPTGPSGLGLPAGLYAFNSGGISLDLGINDPVPFNTVGSQFGTAISQLDADTFVISETGFYKITVIANTATASVLGGLTIQVNGVPVPGTGSSLISLGAPIVIQAITQITTTPSLVEVIVTGLGLSLALGTSASIIIEKVA
B4: ExsY (other)
chain: SCNENKHHGSSHCVVDVVKFINELQDCSTTTCGSGCEIPFLGAHNTASVANTRPFILYTKAGAPFEAFAPSANLTSCRSPIFRVESVDDDSCAVLRVLSVVLGDSSPVPPTDDPICTFLAVPNARLVSTSTCITVDLSCFCAIQCLRDVTI

The target of series [1] is B4. The series is described as follows: isopeptide bonds formed in vivo, LC-MS/MS.
Series [2] deals with the molecule itself. The series is described as follows: isopeptide bonds formed in vivo, LC-MS/MS.
In series [3] the target is T1, BxpB (exosporium basal layer protein). As to the kind of experiment: LC-MS/MS search for branched peptides in >250-kDa exosporium complexes (in vivo).
The target of series [4] is T2, BxpB mutant 13M (all 13 acidic residues …). As to the kind of experiment: anti-BclA immunoblot of >250-kDa complexes formed during sporulation.
Series [5] deals with T3, BxpB mutant 10M (all acidic residues …). The series is described as above.
In another series the target is T4, BxpB mutant 10M+D127. The series is described as follows: anti-BclA immunoblot of >250-kDa complexes (attachment at residue D127).
A further series deals with T5, BxpB mutant 10M+E125. The series is described as follows: anti-BclA immunoblot of >250-kDa complexes (attachment at residue E125).
In series [6] the target is B4. The series is described as follows: LC-MS/MS search for branched peptides in >250-kDa exosporium complexes (in vivo).
For series [7], the target named is B1. The description is as above.
In another series the target is T6, CotE. Described as above.
For series [8], the target named is B1. The series is described as follows: isopeptide bonds formed in vivo, LC-MS/MS.

With B1, the binding result (in the series with ExsY [1]; in series [2]) was “binds” in each case.

As for B2, the binding result in [3] was “no binding”.

Consider B3, for which the binding result (in [4]; in [5]; with ExsY [6]; in the series with CotY [7]; in the series with CotE) was “no binding” throughout. For the same molecule, the “level of attachment relative to wild-type BxpB” value with BxpB mutant 10M+D127 and with BxpB mutant 10M+E125 was ~0.33 fraction of wild-type BxpB level each time.

With B4, the binding result (in the series with CotY [8]; in series [2]) was “binds” each time.
